Compound potency records, mixed from different reports. Data source: NIAID ChemDB in PubChem.

All rows: target-level tests

Lines come from different laboratories, so protocols vary. ICn is the concentration giving n% inhibition. An empty or dashed field is not shown. Inhibition is in % at the dose shown (toxicity tests: loss of growth or viability). Two numbers with a dash give a range or band. Fold resistance: result on the changed form divided by that on wild type.

structure,organism,strain or isolate,changes,target,method,measure,tested at,value
Nc1nc(N)c2c3c(c(-c4ccccc4)nc2n1)CCCC3,Pneumocystis carinii,,,DHFR,,IC50,,6.8 µM
O=C(CSc1nnnn1-c1ccc(C2CC2)cc1Cl)Nc1ccc(-c2ccc(OCCN3CCCC3)cc2)cc1Cl,HIV-1,,RT-K103 Y181C,Reverse transcriptase,PicoGreen / fluorescence,IC50,,<1 µM
CCCCCCCCCCCC1(C)N=C(N)N=C(N)N1c1ccc(Cl)cc1,Toxoplasma gondii,,,DHFR,,IC50,,0.075 µM
CCc1[nH]nc2c1C(c1cc(Cl)cc(Cl)c1)(C1CCC1)C(C#N)=C(N)O2,Plasmodium falciparum,,,Serine hydroxymethyltransferase,absorbance,IC50,,0.51 µM
NNC(=O)c1ccncc1,Mycobacterium tuberculosis,H37Rv,,NADH oxidase,,inhibition,1000 µM,0%
Nc1nc2c(ncn2[C@H]2CO[C@@H](COP(=O)(O)OP(=O)(O)OP(=O)(O)O)O2)c(=O)[nH]1,HIV,,RT-Q151M K103N,Reverse transcriptase,radiometric,fold resistance,,1.5
O=C(CSc1nnnn1-c1cc(C(F)(F)F)ccc1Cl)Nc1ccc(-c2ccc(OCCN3CCCCC3)cc2)c(F)c1Cl,HIV-1,,RT-K103 Y181C,Reverse transcriptase,PicoGreen / fluorescence,IC50,,<1 µM
COC(=O)CCc1cccc(-c2cc(Cl)cc(C3(C4CCC4)C(C#N)=C(N)Oc4n[nH]c(C)c43)c2)c1,Plasmodium falciparum,,,Serine hydroxymethyltransferase,absorbance,IC50,,0.17 µM
Nc1nc(=O)c2ncn(CCOCP(=O)(O)O)c2c(=O)[nH]1,West Nile virus,,,NTPase/helicase,helicase activity,IC50,,500 µM
CN(C)CCN(C)c1cncc(-c2ccc3ccccc3c2)n1,Cytomegalovirus,,,UL97 kinase,,IC50,,<1 µM
Nc1nc(N)c2c(F)cccc2n1,Pneumocystis carinii,,,DHFR,,IC50,,0.41 µM
CC(C)(C)c1ccc(-n2nnnc2SCC(=O)Nc2ccc(-c3ccc(CCC(=O)O)cc3)cc2Cl)c(Cl)c1,HIV-1,WT,,Reverse transcriptase,PicoGreen / fluorescence,IC50,,<1 µM
Oc1ccc(CN[C@@H]2[C@H](O)[C@@H](O)[C@H](O)[C@@H]3O[C@H]23)cc1,Aspergillus niger,,,Beta-D-xylosidase,,inhibition,100 µM,0%
Cc1ccc(-c2cncc(N3CCN(c4cccc(C(F)(F)F)c4)CC3)n2)cc1,Cytomegalovirus,,,UL97 kinase,,inhibition,10 µM,>15%
CC(C)(C#Cc1ccc(NC(=O)CSc2nnnn2-c2ccc(C(C)(C)C)cc2Cl)c(Cl)c1)OCC(=O)Nc1cccc(C(=O)O)c1,HIV-1,WT,,Reverse transcriptase,PicoGreen / fluorescence,IC50,,<1 µM
N[C@@H]1[C@H](O)[C@@H](O)[C@H](O)[C@H]2O[C@@H]12,Aspergillus niger,,,Beta-D-xylosidase,,inhibition,100 µM,76%
COc1ccc(N2CCN(c3cncc(-c4ccc(Oc5ccccc5)cc4)n3)CC2)cc1OC,Cytomegalovirus,,,UL97 kinase,,IC50,,<100 µM
O=c1ccn2ccn(CCCc3cc(Cl)cc(Cl)c3)c(=O)c2c1O,HIV-1,,,Integrase,ELISA,IC50,,0.01–0.1 µM
CCOC(OCC)C1=NO[C@H]2[C@H](O)C(O)O[C@@H]12,Aspergillus niger,,,Beta-galactosidase,,IC50,,>1000 µM
CN1CCN(NS(=O)(=O)c2ccc(NC(=O)CSc3nnnn3-c3ccc(C4CC4)cc3Cl)c(Cl)c2)CC1,HIV-1,WT,,Reverse transcriptase,PicoGreen / fluorescence,IC50,,<1 µM
CC(=O)CC1(O)c2c3[nH]c4ccccc4c3cc[n+]2C2C=CC=CC21,,,,p56lck tyrosine kinase,ELISA,inhibition,600 µM,92%
CC(C)(C#Cc1ccc(NC(=O)CSc2nnnn2-c2ccc(C(C)(C)C)cc2Cl)c(Cl)c1)OCC(=O)N1CCCC1,HIV-1,,RT-K103 Y181C,Reverse transcriptase,PicoGreen / fluorescence,IC50,,<1 µM
Cc1[nH]nc2c1C(c1cc(C#N)cc(-c3ccc(C(=O)O)cc3)c1)(C(C)C)C(C#N)=C(N)O2,Plasmodium falciparum,,,Serine hydroxymethyltransferase,absorbance,Ki,,0.32 µM
CC1(C)O[C@H]2O[C@@H]3C(C4N[C@@H](c5ccccc5)[C@H](c5ccccc5)N4)=NO[C@@H]3[C@H]2O1,Aspergillus niger,,,Beta-galactosidase,,IC50,,>1000 µM
Cc1[nH]nc2c1C(c1cc(Cl)cc(Cl)c1)(C1CC1)C(C#N)=C(N)O2,Plasmodium falciparum,,,Serine hydroxymethyltransferase,absorbance,Ki,,0.376 µM
O=C(CSc1nnnn1-c1ccc(C2CC2)cc1Cl)Nc1ccc(-c2ccc(OCCN3CCCCC3)cc2)c(F)c1Cl,HIV-1,WT,,Reverse transcriptase,PicoGreen / fluorescence,IC50,,<1 µM
CCCOc1cccc2nc(N)nc(N)c12,Toxoplasma gondii,,,DHFR,,IC50,,0.15 µM
Cc1c(NC(=O)CSc2nnnn2-c2ccc(C3CC3)cc2Cl)ccc(C#CC(C)(C)NC(=O)c2cc[n+]([O-])cc2)c1F,HIV-1,,RT-K103 Y181C,Reverse transcriptase,PicoGreen / fluorescence,IC50,,<1 µM
CC(C)C[C@H](NC(=O)[C@@H](O)[C@H](N)Cc1ccccc1)C(=O)O,Plasmodium falciparum,,,PfM17LAP,fluorescence,Ki,,0.613 µM
CCOc1cccc2nc(N)nc(N)c12,Toxoplasma gondii,,,DHFR,,IC50,,8.7 µM
CC(C)(C#Cc1ccc(NC(=O)CSc2nnnn2-c2cc(C(C)(C)C)cc(Br)c2Cl)c(Cl)c1)NC(=O)CN1CCC(C(=O)O)CC1,HIV-1,WT,,Reverse transcriptase,PicoGreen / fluorescence,IC50,,<1 µM
COc1ccc2cc(-c3cncc(N4CCN(c5ccccc5OC)CC4)n3)ccc2c1,Cytomegalovirus,,,UL97 kinase,,IC50,,<100 µM
O[C@@H]1[C@@H](O)[C@@H](NCc2ccc(-c3ccncc3)cc2)[C@H]2O[C@H]2[C@H]1O,Aspergillus niger,,,Beta-D-xylosidase,,inhibition,100 µM,0%
Clc1cc(CN2CCCNCCNCCCNCC2)cc(Cl)n1,,,CXCR4-H203A,CXCR4,,fold resistance,,5.88
Clc1ccc(-c2cncc(N3CCN(c4ccccn4)CC3)n2)cc1,Cytomegalovirus,,,UL97 kinase,,inhibition,10 µM,>15%
CC(C)(C)c1ccc(-n2nnnc2SCC(=O)Nc2ccc(C(=O)N3CCC(C(=O)O)CC3)cc2Cl)c(Cl)c1,HIV-1,WT,,Reverse transcriptase,PicoGreen / fluorescence,IC50,,<1 µM
O[C@@H]1[C@@H](O)[C@@H](NCc2ccc(-c3ccccc3)cc2)[C@H]2O[C@H]2[C@H]1O,Aspergillus niger,,,Amyloglucosidase,,inhibition,100 µM,16%
N#CC1=C(N)Oc2[nH]ncc2C1(c1cc(Cl)cc(Cl)c1)C1CCC1,Plasmodium falciparum,,,Serine hydroxymethyltransferase,absorbance,IC50,,0.35 µM
CC(C)c1cc(Cl)c(-n2nnnc2SCC(=O)Nc2ccc(-c3ccc(CC(=O)O)cc3)cc2Cl)c(C(F)(F)F)c1,HIV-1,WT,,Reverse transcriptase,PicoGreen / fluorescence,IC50,,<1 µM
CC(C)(C(=O)c1cn2c(c(O)c1=O)C(=O)N(Cc1cccc(Cl)c1)CC2)c1ccccc1,HIV-1,,,Integrase,ELISA,IC50,,0.01–0.1 µM
CC(C)(C#Cc1ccc(NC(=O)CSc2nnnn2-c2ccc(C3CC3)cc2Cl)c(Cl)c1)C(=O)NS(=O)(=O)C1CC1,HIV-1,,RT-K103 Y181C,Reverse transcriptase,PicoGreen / fluorescence,IC50,,<1 µM
Cc1[nH]nc2c1C(c1cc(C#N)cc(C(F)(F)F)c1)(C1CC=CC1)C(C#N)=C(N)O2,Plasmodium falciparum,,,Serine hydroxymethyltransferase,absorbance,Ki,,0.659 µM
O=C(CSc1nnnn1-c1ccc(C2CC2)cc1Cl)Nc1ccc(C(=O)NCc2ccc[n+]([O-])c2)cc1Cl,HIV-1,WT,,Reverse transcriptase,PicoGreen / fluorescence,IC50,,<1 µM
O=c1ccn2ccn(C/C=C/c3ccccc3)c(=O)c2c1O,HIV-1,,,Integrase,ELISA,IC50,,0.01–0.1 µM
CC(C)(C)c1ccc(-n2nnnc2SCC(=O)Nc2ccc(-c3ncc[nH]3)cc2Cl)c(Cl)c1,HIV-1,,RT-K103 Y181C,Reverse transcriptase,PicoGreen / fluorescence,IC50,,<1 µM
CC(C)(C)C(=O)c1cn2c(CO)cn(Cc3ccc(F)c(Cl)c3)c(=O)c2c(O)c1=O,HIV-1,,,Integrase,ELISA,IC50,,<0.01 µM
C[C@H](CC(=O)O)C(=O)NC(C)(C)C#Cc1ccc(NC(=O)CSc2nnnn2-c2ccc(C3CC3)cc2Cl)c(Cl)c1,HIV-1,WT,,Reverse transcriptase,PicoGreen / fluorescence,IC50,,<1 µM
Cc1[nH]nc2c1C(c1cc(Cl)cc(N3CCOCC3)c1)(C1CCC1)C(C#N)=C(N)O2,Plasmodium falciparum,,,Serine hydroxymethyltransferase,absorbance,Ki,,0.482 µM
CC(C)(C)c1ccc(-n2nnnc2SCC(=O)Nc2ccc(C(=O)NC3CCN(Cc4ccccc4)CC3)cc2Cl)c(Cl)c1,HIV-1,WT,,Reverse transcriptase,PicoGreen / fluorescence,IC50,,<1 µM
Fc1ccc(N2CCN(c3cncc(-c4csc5ccccc45)n3)CC2)cc1,Cytomegalovirus,,,UL97 kinase,,IC50,,<10 µM
COC(=O)CN(C)CCOc1ccc(-c2ccc(NC(=O)CSc3nnnn3-c3ccc(C(C)(C)C)cc3Cl)c(Cl)c2)cc1,HIV-1,,RT-K103 Y181C,Reverse transcriptase,PicoGreen / fluorescence,IC50,,<1 µM
CC(=O)c1cccc(-c2cncc(N3CCN(c4cccc(Cl)c4)CC3)n2)c1,Cytomegalovirus,,,UL97 kinase,,inhibition,1 µM,<50%
Nc1nc(N)c2nc(Cc3cccc(C(F)(F)F)c3)c(Cc3cccc(C(F)(F)F)c3)nc2n1,Toxoplasma gondii,,,DHFR,,IC50,,39 µM
CC(C)(C)c1ccc(-n2nnnc2SCC(=O)Nc2ccc(NC(=O)c3ccc(C(=O)O)cc3)cc2Cl)c(Cl)c1,HIV-1,,RT-K103 Y181C,Reverse transcriptase,PicoGreen / fluorescence,IC50,,<1 µM

A second listing of 8 rows from above:

structure	organism	strain or isolate	changes	target	method	measure	tested at	value
Cc1[nH]nc2c1C(c1cc(C#N)cc(-c3ccc(C(=O)O)cc3)c1)(C(C)C)C(C#N)=C(N)O2	Plasmodium falciparum			Serine hydroxymethyltransferase	absorbance	Ki		0.32 µM
COC(=O)CCc1cccc(-c2cc(Cl)cc(C3(C4CCC4)C(C#N)=C(N)Oc4n[nH]c(C)c43)c2)c1	Plasmodium falciparum			Serine hydroxymethyltransferase	absorbance	IC50		0.17 µM
O=c1ccn2ccn(C/C=C/c3ccccc3)c(=O)c2c1O	HIV-1			Integrase	ELISA	IC50		0.01–0.1 µM
CC(C)(C#Cc1ccc(NC(=O)CSc2nnnn2-c2ccc(C(C)(C)C)cc2Cl)c(Cl)c1)OCC(=O)Nc1cccc(C(=O)O)c1	HIV-1	WT		Reverse transcriptase	PicoGreen / fluorescence	IC50		<1 µM
CCOc1cccc2nc(N)nc(N)c12	Toxoplasma gondii			DHFR		IC50		8.7 µM
CC(C)(C)c1ccc(-n2nnnc2SCC(=O)Nc2ccc(NC(=O)c3ccc(C(=O)O)cc3)cc2Cl)c(Cl)c1	HIV-1		RT-K103 Y181C	Reverse transcriptase	PicoGreen / fluorescence	IC50		<1 µM
CC(C)(C)c1ccc(-n2nnnc2SCC(=O)Nc2ccc(-c3ccc(CCC(=O)O)cc3)cc2Cl)c(Cl)c1	HIV-1	WT		Reverse transcriptase	PicoGreen / fluorescence	IC50		<1 µM
O[C@@H]1[C@@H](O)[C@@H](NCc2ccc(-c3ccncc3)cc2)[C@H]2O[C@H]2[C@H]1O	Aspergillus niger			Beta-D-xylosidase		inhibition	100 µM	0%